Data as given in patent publication US20250263469A1, “POLYPEPTIDES TARGETING SARS-COV-2 AND RELATED COMPOSITIONS AND METHODS” (HOSPITAL FOR SICK CHILDREN, published 2025).

Biological target: Spike of authentic SARS-CoV-2/SB2-P4-PB virus (SARS-CoV-2, UniProt P0DTC2 14-1273)
Experiment: cell-based or functional assay

B1: mAb 80 (antibody, V domains shown)
VH: QVQLVQSGAEVKKPGSSVKVSCKASGGTFNRYAFSWVRQAPGQGLEWMGGIIPIFGTANYAQKFQGRVTITADESTSTAYMELSSLRSEDTAVYYCARSTRELPEVVDWYFDLWGRGTLVTVSS
VL: DIVMTQSPDSLAVSLGERATINCKSSQSVLYSSNNKNYLAWYQQKPGQPPKLLIYWASTRESGVPDRFSGSGSGTDFTLTISSLQAEDVAVYYCQQYYSAPLTFGGGTKVEIKR
IC50 SARS-CoV2/SB2-P4-PB (authentic virus), IgG: 12.7 µg/mL

B2: mAb 298 (antibody, V domains shown)
VH: QVQLVQSGAEVKKPGASVKVSCKASGGTFSTYGISWVRQAPGQGLEWMGWISPNSGGTDLAQKFQGRVTMTRDTSTSTVYMELSSLRSEDTAVYYCASDPRDDIAGGYWGQGTLVTVSS
VL: not shown
IC50 SARS-CoV2/SB2-P4-PB (authentic virus), IgG: 2.2 µg/mL
